This data set has as its system E. coli K-12. Briefly: Mie scattering analysis of speckle intensity ratio / fitted particle size. The class given is cell-based, Escherichia coli.

For the compound `CC1(C)S[C@@H]2[C@H](NC(=O)[C@H](N)c3ccccc3)C(=O)N2[C@H]1C(=O)O` [ampicillin, Ampicillin], the “ratio of the 1,000th pixel to the 1st pixel” value (shortened to “ratio of the 1,000th pixel”) is, setting by setting: (0.25 × MIC, t0) 3.131; (0.25 × MIC, t1) 3.831; (0.25 × MIC, t2) 4.303; (0.25 × MIC, t3) 4.332; (0.25 × MIC, t4) 4.496; (0.5 × MIC, t0) 3.221. Besides, the “ratio of the 1,000th pixel” value worked out at 3.85 (0.5 × MIC, t1); 4.191 (0.5 × MIC, t2); 4.556 (0.5 × MIC, t3); 4.466 (0.5 × MIC, t4); 2.738 (1 × MIC, t0); 3.547 (1 × MIC, t1). Further, the “ratio of the 1,000th pixel” value (1 × MIC, t2) stood at 3.82; the “ratio of the 1,000th pixel” value (1 × MIC, t3) was 3.2; the “ratio of the 1,000th pixel” value (1 × MIC, t4) was 2.856; the “ratio of the 1,000th pixel” value (2 × MIC, t0) is reported as 2.407; the “ratio of the 1,000th pixel” value (2 × MIC, t1) is reported as 3.418; the “ratio of the 1,000th pixel” value (2 × MIC, t2) was 2.76. For the same compound, the “ratio of the 1,000th pixel” value is listed as 2.442 (2 × MIC, t3) and 2.201 (2 × MIC, t4).

gentamicin: the “ratio of the 1,000th pixel” value (0.25 × MIC, t0) is on record as 2.606; the “ratio of the 1,000th pixel” value (0.25 × MIC, t1) is given as 3.586; the “ratio of the 1,000th pixel” value (0.25 × MIC, t2) turned out to be 3.617; the “ratio of the 1,000th pixel” value (0.25 × MIC, t3) worked out at 3.844; the “ratio of the 1,000th pixel” value (0.25 × MIC, t4) is recorded as 3.578; the “ratio of the 1,000th pixel” value (0.5 × MIC, t0) was determined as 3.072. Moreover, the “ratio of the 1,000th pixel” value by setting is: (0.5 × MIC, t1) 3.474; (0.5 × MIC, t2) 3.615; (0.5 × MIC, t3) 3.416; (0.5 × MIC, t4) 3.386; (1 × MIC, t0) 2.913; (1 × MIC, t1) 3.02. Further, the “ratio of the 1,000th pixel” value is, setting by setting: (1 × MIC, t2) 2.767; (1 × MIC, t3) 3.082; (1 × MIC, t4) 3.058; (2 × MIC, t0) 2.82; (2 × MIC, t1) 2.954; (2 × MIC, t2) 2.958. Moreover, the “ratio of the 1,000th pixel” value reads like this: (2 × MIC, t3) 2.809; (2 × MIC, t4) 2.682. Moreover, the “change of the measured ratio (bacterial size)” value (over concentrations and time) is “no significant change”.

(Values after patent US20230067015A1, “SYSTEMS AND METHODS FOR ANTIBACTERIAL SUSCEPTIBILITY TESTING USING DYNAMIC LASER SPECKLE IMAGING” (The Penn State Research Foundation, priority 2020, published 2023).)
